Pooled drug test results. Numbers come from NIAID ChemDB, via PubChem.

Shared fields: target-level tests; species: HIV-1; protein: Reverse transcriptase; method: nucleotide incorporation / radiometric; endpoint: fold resistance

Fold resistance has wild type as its base. Lines come from different laboratories, so protocols vary. Blank or dashed fields: not listed here. a–b is a range or a potency band.

structure | changes | strain or isolate | result
OCc1cn(Cc2ccncc2)c(Sc2cc(Cl)cc(Cl)c2)c1C1CCC1 | RT-K103N |  | 541
CCN1c2ncc(CCOc3ccc(CC(N)=O)c4ccccc34)cc2C(=O)N(C)c2cccnc21 | RT-V106A |  | 1–10
C#C[C@]1(COP(=O)(O)OP(=O)(O)OP(=O)(O)O)CC[C@@H](n2ccc(N)nc2=O)O1 | RT-M184V |  | >5
Cc1cn([C@H]2C=C[C@@H](COP(=O)(O)OP(=O)(O)OP(=O)(O)O)O2)c(=O)[nH]c1=O | RT-I132A |  | 0.7
CC(C)=CCN1Cc2cc(Cl)cc3[nH]c(=O)n(c23)C[C@@H]1C | RT-P225H |  | 2.7
Cc1c(Cc2c(Cl)cccc2Cl)nc(SCc2ccc3c(c2)OCO3)[nH]c1=O | RT-K103N |  | >800
Cc1cc(C)cc(S(=O)(=O)c2c(C(=O)NNCCO)[nH]c3ccc(Cl)cc23)c1 | RT-V179D |  | >666
NC(=O)OCc1cn(Cc2ccncc2)c(Sc2cc(Cl)cc(Cl)c2)c1C1CCC1 | RT-Y181I |  | 3750
CC(C)=CCOc1cc(NC(=S)c2ccoc2C)ccc1Cl | RT-V106A P225H |  | 104
CCOc1ccc(CSc2nc(Cc3c(Cl)cccc3Cl)c(C)c(=O)[nH]2)cc1 | RT-K103N |  | >200
CCC1(c2ccc(CCc3ccccc3)cc2)Oc2ccccc2-n2cccc2C1=O | RT-Y181I |  | >58.8
COc1ccc(CSc2nc(Cc3c(Cl)cccc3Cl)c(C)c(=O)[nH]2)cc1OC | RT-K103N |  | >333
O=C(O)Cn1cnc2c(=O)[nH]c(NC(=O)OCc3ccccc3)nc21 | Y181I | NNRTI-resistant | 2.55
Cc1c(Cc2c(F)cccc2F)nc(SCc2ccc([N+](=O)[O-])cc2)[nH]c1=O | RT-K103N |  | ~1
Nc1ccn([C@@H]2CS[C@H](COP(=O)(O)OP(=O)(O)OP(=O)(O)O)O2)c(=O)n1 | RT-Q151M |  | 1.77
CCOCn1c(Cc2ccccc2)c(C(C)C)c(=O)[nH]c1=O | RT-V106A |  | 12
CCN1c2ncc(CCOc3ccc4cc(C(=O)O)ccc4c3)cc2C(=O)N(C)c2cccnc21 | RT-V106A |  | 1–10
Cc1c(Cc2c(Cl)cccc2Cl)nc(SCc2ccc(O)cc2)[nH]c1=O | RT-K103N |  | ~1
CCC1(c2ccc(COc3ccccc3)cc2)Oc2ccccc2-n2cccc2C1=O | RT-L100I |  | 1.3
CCN1c2ncc(CCOc3ccc(C(=O)O)c4ccccc34)cc2C(=O)Nc2c(C)cc(Cl)nc21 | RT-K103N Y181C |  | 1–10
CCC1(c2ccc(COc3ccccc3Cl)cc2)Oc2ccccc2-n2cccc2C1=O | RT-Y188L |  | >10
CCN1c2ncc(CCOc3ccc(S(N)(=O)=O)c4ccccc34)cc2C(=O)N(C)c2cccnc21 | RT-K103N Y181C |  | 1
CCC1(c2ccc(COc3cccnc3)cc2)Oc2ccccc2-n2cccc2C1=O | RT-L100I |  | 0.75
Cc1c(C(C)c2c(F)cccc2F)nc(N(C)C)[nH]c1=O | RT-L100I |  | 12
Cc1c(Cc2c(Cl)cccc2Cl)nc(SCc2ccc(Cl)cc2)[nH]c1=O | RT-181I |  | >20
Nc1nc2c(ncn2[C@H]2C[C@H](O)[C@@H](COP(=O)(O)OP(=O)(O)OP(=O)(O)O)O2)c(=O)[nH]1 | RT-Q151M |  | 0.67
CCC1(c2cccc(N)c2)Oc2ccccc2-n2cccc2C1=O | RT-V106A |  | 5.3
CC(C)(C)OC(=O)Cn1cnc2c(Oc3ccccc3[N+](=O)[O-])nc(NC(=O)OCc3ccccc3)nc21 | K103N | NNRTI-resistant | 89
Cc1c(C(C)c2c(F)cccc2F)nc(N2CCOCC2)[nH]c1=O | RT-Y181I | IIIB | >6670
Cc1c(Cc2c(F)cccc2F)nc(SCc2ccc(C#N)cc2)[nH]c1=O | RT-181I |  | >526
Cc1cn([C@H]2C=C[C@@H](COP(=O)(O)OP(=O)(O)OP(=O)(O)O)O2)c(=O)[nH]c1=O | RT-A62V V75I F77L F116Y Q151M |  | 10
Nc1nc2c(ncn2[C@H]2CC[C@@H](COP(=O)(O)OP(=O)(O)OP(=O)(O)O)O2)c(=O)[nH]1 | RT-V106A P225H |  | 0.75
CN(C)c1nc(Cc2c(F)cccc2F)cc(=O)[nH]1 | RT-K103N | IIIB | 37.5
C=C(C)CCOCc1ccc(C2(CC)Oc3ccccc3-n3cccc3C2=O)cc1 | RT-V106A |  | 1.28

4 of the rows above, restated:

structure	changes	strain or isolate	result
OCc1cn(Cc2ccncc2)c(Sc2cc(Cl)cc(Cl)c2)c1C1CCC1	RT-K103N		541
Nc1nc2c(ncn2[C@H]2C[C@H](O)[C@@H](COP(=O)(O)OP(=O)(O)OP(=O)(O)O)O2)c(=O)[nH]1	RT-Q151M		0.67
CC(C)(C)OC(=O)Cn1cnc2c(Oc3ccccc3[N+](=O)[O-])nc(NC(=O)OCc3ccccc3)nc21	K103N	NNRTI-resistant	89
Cc1cn([C@H]2C=C[C@@H](COP(=O)(O)OP(=O)(O)OP(=O)(O)O)O2)c(=O)[nH]c1=O	RT-I132A		0.7